Experiment: Selectivity index, ratio of CC50 for African green monkey Vero cells to IC50 for MERS-CoV/KOR/KNIH/002_05_2015 infected in African green monkey Vero cells expressing viral spike protein
Type: toxicity
Conditions: read-out: Ratio CC50/IC50

| SMILES | selectivity ratio |
| --- | --- |
| CC(C)C(=O)c1c(Nc2ccc(F)cc2F)[nH]c2c(Cl)cc(Cl)c(Cl)c2c1=O | 231 |
| CC(=O)c1c(NC(C)C)[nH]c2c(C(F)(F)F)cc(Cl)cc2c1=O | 33 |
| CC(=O)c1c(Nc2ccc(F)cc2F)[nH]c2c(F)cc(Cl)cc2c1=O | 26 |

Reference: ChEMBL document CHEMBL4311996, “Synthesis and biological evaluation of 3-acyl-2-phenylamino-1,4-dihydroquinolin-4(1H)-one derivatives as potential MERS-CoV inhibitors” (Bioorg Med Chem Lett, 2019)
